Pooled drug test results. Numbers come from NIAID ChemDB, via PubChem.

Common to all: whole-cell or culture tests; organism: Herpes simplex virus 2; cell line: PRK; method: cytopathic effect; read-out: EC50

ECn: concentration that inhibits the pathogen or its effect by n%. Rows are shuffled and stem from different studies. An empty or dashed field is not shown. a–b is a range or a potency band.

SMILES,strain,value
O=c1[nH]c(=O)n([C@H]2C[C@H](O)[C@@H](COP(=O)(O)O)O2)cc1/C=C/c1cccc([N+](=O)[O-])c1,G,>100 µg/mL
Nc1ncnc2c1ncn2COCCO,-,10 µg/mL
CSCc1cn([C@H]2C[C@H](O)[C@@H](CO)O2)c(=O)[nH]c1=O,VCX210,20 µg/mL
CCc1cn([C@H]2C[C@H](O)[C@@H](COP(=O)(O)O)O2)c(=O)[nH]c1=O,LYONS,0.4 µg/mL
O=Cc1cn([C@H]2C[C@H](O)[C@@H](CO)O2)c(=O)[nH]c1=O,G,1 µg/mL
O=c1[nH]c(=O)n([C@H]2CC[C@@H](CO)O2)cc1/C=C/Br,G,1 µg/mL
N=C(N)CCNC(=O)c1c[nH]c(NC(=O)c2c[nH]c(NC(=O)CCCCCCCC(=O)Nc3c[nH]c(C(=O)Nc4c[nH]c(C(=O)NCCC(=N)N)c4)c3)c2)c1,-,40 µg/mL
Nc1ncnc2c1ncn2C[C@H](O)CO,333,4–10 µg/mL
Cc1cn([C@H]2O[C@H](CO)[C@@H](N=[N+]=[N-])[C@H]2F)c(=O)nc1N,G,>400 µg/mL
O=c1[nH]c(=O)n([C@H]2C[C@H](O)[C@@H](CO)O2)cc1I,G,<0.91 µg/mL
O=c1[nH]c(=O)n([C@H]2C[C@H](O)[C@@H](CO)O2)cc1I,G,1 µg/mL
Nc1nc2c(ncn2COCCO)c(=O)[nH]1,G,0.07 µg/mL
Nc1nc(=O)n(COCCO)cc1[N+](=O)[O-],-,>400 µg/mL
Nc1ncnc2c1ncn2[C@@H]1C=C(CO)[C@@H](O)C1,G,>400 µg/mL
O=c1[nH]c(=O)n([C@H]2C[C@H](O)[C@@H](CO)O2)cc1/C=C/Br,196,25 µg/mL
O=c1[nH]c(=O)n([C@H]2C[C@H](O)[C@@H](CO)O2)cc1/C=C/Br,G,<2.3 µg/mL
Nc1ccn([C@@H]2C[C@H](CO)[C@@H](O)[C@H]2O)c(=O)n1,G,400 µg/mL
[N-]=[N+]=NCc1cn([C@H]2C[C@H](O)[C@@H](CO)O2)c(=O)[nH]c1=O,VCX210,1 µg/mL
O=c1[nH]c(=O)n([C@H]2C[C@H](O)[C@@H](CO)O2)cc1F,G,7 µg/mL
N=C(N)CCNC(=O)c1c[nH]c(NC(=O)c2c[nH]c(NC(=O)c3c[nH]c(NC(=O)CCC(=O)Nc4c[nH]c(C(=O)Nc5c[nH]c(C(=O)Nc6c[nH]c(C(=O)NCCC(=N)N)c6)c5)c4)c3)c2)c1,-,4 µg/mL
O=c1[nH]c(=O)n([C@H]2C[C@H](O)[C@@H](CO)O2)cc1I,VCX301,0.3 µg/mL
CC(=O)OCCOCn1cnc2c(Cl)ncnc21,-,70 µg/mL
O=c1[nH]c(=O)n([C@H]2C[C@H](O)[C@@H](CO)O2)cc1/C=C/Br,LYONS,40 µg/mL
CS(=O)Cc1cn([C@H]2C[C@H](O)[C@@H](CO)O2)c(=O)[nH]c1=O,LYONS G 196,>400 µg/mL
CON1CCc2c([nH]c3ccccc23)[C@@H]1[C@@H](N)CSC,G,70 µg/mL
Nc1ncnc2c1ncn2C[C@H](O)CO,G,>400 µg/mL
O=c1[nH]c(=O)n(COCCO)cc1[N+](=O)[O-],-,>400 µg/mL
CC(=O)Nc1nc2c(CC(O)CO)ncn2c(=O)[nH]1,G,>200 µg/mL
O=c1[nH]cnc2c1ncn2COCCO,-,>400 µg/mL
O=c1[nH]c(=O)n([C@H]2C[C@H](O)[C@@H](COP(=O)([O-])OP(=O)([O-])OC[C@@H]3OC(O)[C@H](O)[C@H](O)[C@H]3O)O2)cc1I,LYONS,0.4 µg/mL
Nc1ncnc2c1ncn2[C@@H]1C=C(CO)[C@@H](O)[C@@H]1O,G,>400 µg/mL
NC1CSCON2CCc3c([nH]c4ccccc34)[C@H]12,G,0.2 µg/mL
Cc1nc(CC(O)CO)c2nc[nH]c(=O)n12,G,>400 µg/mL
Nc1nc(=O)c(/C=C/Br)cn1[C@H]1C[C@H](O)[C@@H](CO)O1,196,300 µg/mL
O=c1[nH]c(=O)n([C@H]2C[C@H](O)[C@@H](CO)O2)cc1I,LYONS,0.2 µg/mL
O=c1[nH]c(=O)n([C@H]2C[C@@H](CO)[C@H](O)C2)cc1I,G,70 µg/mL
Nc1nc2c(ncn2COCCO)c(=O)[nH]1,LYONS,0.06 µg/mL
Cc1cn(COCCO)c(=O)[nH]c1=O,-,>400 µg/mL
O=c1[nH]c(=O)n([C@H]2C[C@H](O)[C@@H](COP(=O)(O)O)O2)cc1I,196,1 µg/mL
Nc1nc(N)c2nnn([C@H]3CC[C@H](O)[C@H]3CO)c2n1,MS,10 µg/mL
Nc1nc(=O)ccn1COCCO,-,>400 µg/mL
Nc1ncnc2c1ncn2[C@@H]1O[C@H](CO)[C@@H](O)[C@H]1OP(=O)(O)OC[C@H]1O[C@@H](n2cnc3c(N)ncnc32)[C@H](OP(=O)(O)OC[C@H]2O[C@@H](n3cc(F)c(=O)[nH]c3=O)C[C@@H]2O)[C@@H]1O,196,>100 µg/mL
Cc1nc(C(C)C)c2[nH]c(=S)[nH]c(=O)n12,G,>200 µg/mL
Nc1nc(=O)n([C@H]2C[C@H](O)[C@@H](CO)O2)cc1/C=C\Cl,G,20 µg/mL
Nc1nc2c(ncn2COC(CO)CO)c(=O)[nH]1,G,<0.1 µg/mL
O=c1[nH]c(=O)n([C@H]2C[C@H](O)[C@@H](CO)O2)cc1/C=C/Br,LYONS,7 µg/mL
O=c1[nH]c(=O)n([C@H]2C[C@H](O)[C@@H](CO)O2)cc1/C=C\Cl,LYONS,7 µg/mL
Nc1ncnc2c1ncn2C[C@@H](CO)OCP(=O)(O)O,196,1–3 µg/mL
O=c1[nH]c(=O)n([C@@H]2OC3COP(=O)(O)OC3[C@H]2O)cc1I,196,>400 µg/mL
CCCc1cn([C@H]2C[C@H](O)[C@@H](COP(=O)(O)O)O2)c(=O)[nH]c1=O,G,5 µg/mL
Nc1ncnc2c1ncn2C1CC(COP(=O)(O)O)[C@@H](O)[C@H]1O,-,7 µg/mL
N=C(N)CCNC(=O)c1c[nH]c(NC(=O)c2c[nH]c(NC(=O)CCCCCCC(=O)Nc3c[nH]c(C(=O)Nc4c[nH]c(C(=O)NCCC(=N)N)c4)c3)c2)c1,-,10 µg/mL
Nc1nc2c(nc(N3CCCCC3)n2COCCO)c(=O)[nH]1,-,150 µg/mL
Nc1nccc2c1ncn2[C@@H]1C[C@H](CO)[C@@H](O)[C@H]1O,G,≥200 µg/mL
O=c1[nH]c(=O)n(C2CC(O)C(CO)O2)cc1CCCCl,196,17 µg/mL
O=c1[nH]c(=O)n(C2CC(CO)[C@@H](O)C2)cc1/C=C/Br,196,70 µg/mL

The last 4 rows once more:

| SMILES | strain | value |
|---|---|---|
| Nc1nc2c(nc(N3CCCCC3)n2COCCO)c(=O)[nH]1 | - | 150 µg/mL |
| Nc1nccc2c1ncn2[C@@H]1C[C@H](CO)[C@@H](O)[C@H]1O | G | ≥200 µg/mL |
| O=c1[nH]c(=O)n(C2CC(O)C(CO)O2)cc1CCCCl | 196 | 17 µg/mL |
| O=c1[nH]c(=O)n(C2CC(CO)[C@@H](O)C2)cc1/C=C/Br | 196 | 70 µg/mL |